A mixed list of measured activities; the numbers were collected in NIAID ChemDB.

Shared fields: tests in culture; organism: Hepatitis C virus; endpoint: EC50

Two numbers with a dash give a range or band.

smiles	cell line	read by	strain	result
Cc1cc2ccc3c(c(-c4ccc[nH]c4=O)c(C(=O)NS(C)(=O)=O)n3Cc3cc(F)ccc3F)c2o1		replicon		>1.5 µM
O=C(O)/C=C/c1ccc(NC(=O)C2(NC(=O)c3ccc4c(C5CCCCC5)c5n(c4c3)CC(C(=O)N3CCOCC3)Cc3cccnc3-5)CCCC2)cc1	Huh7	replicon		0.01–1 µM
CC(C)N(C(=O)c1ccc(Cl)cc1Cl)c1cc(-c2ccc(-c3cn4ccsc4n3)cc2)sc1C(=O)O		replicon / ELISA	1b	0.1–0.5 µM
C=CC1CC1(NC(=O)[C@@H]1C[C@@H](OC(=O)Nc2c(Cl)cccc2Cl)CN1C(=O)[C@@H](NC(=O)OC(C)(C)C)C(C)(C)C)C(=O)NS(=O)(=O)C1CC1	Huh7	replicon	1b	1–10 µM
Nc1cc(Cn2c(C(=O)O)c(-c3ccc[nH]c3=O)c3c4occc4c(F)cc32)ccn1		replicon		<0.5 µM
COc1cccc(OS(=O)(=O)c2ccc(C(F)(F)F)cc2)c1/C=N/NC(=O)Cc1cccc(Cl)c1	Huh7	replicon		<5 µM
C=CC1CC1(NC(=O)[C@@H]1C[C@@H](OC(=O)Nc2cc(Cl)ccc2OC)CN1C(=O)[C@@H](NC(=O)OC(C)(C)C)C(C)(C)C)C(=O)NS(=O)(=O)C1CC1	Huh7	replicon	1b	0.1–1 µM
CC(=O)N1c2cccc(O)c2NC2=C(C(=O)CC(C)(C)C2)C1c1ccc(OCc2ccccn2)cc1Cl		luciferase / reporter gene / replicon	1b	10.01 µM
O=C(O)c1ccc2c(C3CCCCC3)c3n(c2c1)CC(=O)N3c1ccccc1	Huh7	replicon		>10 µM
C=CC1CC1(NC(=O)[C@@H]1C[C@@H](OC(=O)Nc2ccccc2-c2ccccc2)CN1C(=O)[C@@H](NC(=O)OC(C)(C)C)C(C)(C)C)C(=O)NS(=O)(=O)C1CC1	Huh7	replicon	1b	0.1–1 µM
NC(=O)c1cc(Cn2c(C(=O)NS(=O)(=O)C3CC3)c(-c3ccc[nH]c3=O)c3c4occc4c(F)cc32)cs1		replicon		<0.5 µM
COc1cccc(CC(=O)N/N=C/c2ncccc2OS(=O)(=O)c2ccc(C)cc2)c1	Huh7	replicon		<5 µM
CN(Cc1ccc(/C=C\C(=O)O)cc1)S(=O)(=O)NC(=O)c1ccc2c(C3CCCCC3)c3n(c2c1)CC(=O)Nc1ccccc1-3	Huh7	replicon		1–10 µM
C=CC1CC1(NC(=O)[C@@H]1C[C@@H](OC(=O)Nc2ccc3c(c2)OCO3)CN1C(=O)[C@@H](NC(=O)OC(C)(C)C)C(C)(C)C)C(=O)NS(=O)(=O)C1CC1	Huh7	replicon	1b	>10 µM
CC(C)N(C(=O)c1ccc(Cl)cc1Cl)c1cc(-c2ccc(-c3cn4ccccc4n3)cc2)sc1C(=O)O		replicon / ELISA	1b	0.05–0.1 µM
Cc1cccc(Cn2c(C(=O)O)c(-c3ccc[nH]c3=O)c3c4occ(C)c4ccc32)c1F		replicon		>1.5 µM
CC(=O)Nc1ccc(CNc2cccc(CC(=O)N/N=C/c3ccccc3OS(=O)(=O)c3ccc(C(F)(F)F)cc3)c2)cc1	Huh7	replicon		<5 µM
Cc1cc2ccc3c(c(-c4ccc[nH]c4=O)c(C(=O)O)n3Cc3ccccc3F)c2o1		replicon		>1.5 µM
O=C(O)c1sc(-c2ccc(-c3cc4ncccn4n3)cc2)cc1N(C(=O)c1ccc(Cl)cc1F)C1CCOC1		luciferase / replicon	1a	0.1–0.5 µM
C=CC1CC1(NC(=O)[C@@H]1C[C@@H](OC(=O)Nc2cccc(C)c2C)CN1C(=O)[C@@H](NC(=O)OC(C)(C)C)C(C)(C)C)C(=O)NS(=O)(=O)C1CC1	Huh7	replicon	1b	1–10 µM
O=C(Cc1ccccc1)N/N=C/c1ccccc1OS(=O)(=O)c1cccc(C(F)(F)F)c1	Huh7	replicon		5–50 µM
CC1(C)CC(=O)C2=C(C1)Nc1c(O)cccc1N(C(=O)c1cscn1)C2c1ccc(OCc2ccc(F)cc2)cc1F		luciferase / reporter gene / replicon	1b	12.1 µM
O=C(Cc1ccccc1)N/N=C/c1ccccc1OS(=O)(=O)c1ccc(Cl)c(Cl)c1	Huh7	replicon		<5 µM
CCOC(=O)/C=C/c1ccc(NC(=O)C2(NC(=O)c3ccc4c(C5CCCCC5)c5n(c4c3)CC(C(=O)O)Nc3ccccc3-5)CCCC2)cc1	Huh7	replicon		0.01–1 µM
CC(=O)c1ccc(-c2cc(N(C(=O)c3ccc(Cl)cc3Cl)C(C)C)c(C(=O)O)s2)s1		luciferase / replicon	1b	>5 µM
COC(=O)c1ccc2c(C3CCCCC3)c3n(c2c1)CC(O)Cc1ccccc1-3	Huh7	replicon		0.01–1 µM
CC1(C)CC(=O)C2=C(C1)Nc1c(O)cccc1N(C(=O)c1cscn1)[C@H]2c1ccc(OCc2ccccc2)cc1F		luciferase / reporter gene / replicon	1b	0.71 µM
COC(=O)C1=Cc2cc(Cl)ccc2-c2c(C3CCCCC3)c3ccc(C(=O)OC)cc3n2C1	Huh7	replicon		1–10 µM
O=C(O)c1ccc(F)c(Cn2c(C(=O)O)c(-c3ccc[nH]c3=O)c3c4occc4c(F)cc32)c1		replicon		0.5–1.5 µM
CC(C)C(=O)N1c2cccc(O)c2NC2=C(C(=O)CC(C)(C)C2)C1c1ccc(OCc2cc(F)cc(F)c2)cc1F		luciferase / reporter gene / replicon	1b	3.86 µM
C=CC1CC1(NC(=O)[C@@H]1C[C@@H](OC(=O)Nc2ccccc2C)CN1C(=O)[C@@H](NC(=O)OC(C)(C)C)C(C)(C)C)C(=O)NS(=O)(=O)C1CC1	Huh7	replicon	1b	1–10 µM
CC1(C)CC(=O)C2=C(C1)Nc1c(O)cccc1NC2c1ccc(S(C)(=O)=O)cc1		luciferase / reporter gene / replicon	1b	>100 µM
O=C(NS(=O)(=O)C1CC1)c1ccc2c(C3CCCCC3)c3n(c2c1)CC=Cc1ncccc1-3	Huh7	replicon		1–10 µM
CCc1coc2c1ccc1c2c(-c2ccc[nH]c2=O)c(C(=O)O)n1Cc1cc(F)ccc1F		replicon		>1.5 µM
CN(c1ccccc1/C=N/NC(=O)c1cc(Cl)ccc1Cl)S(=O)(=O)c1ccc(C(F)(F)F)cc1	Huh7	replicon		>50 µM
C=CC1CC1(NC(=O)[C@@H]1C[C@@H](OC(=O)Nc2ccccc2N2CCOCC2)CN1C(=O)[C@@H](NC(=O)OC(C)(C)C)C(C)(C)C)C(=O)NS(=O)(=O)C1CC1	Huh7	replicon	1b	0.1–1 µM
COc1cccc(CC(=O)N/N=C/c2cc(Cl)ccc2OS(=O)(=O)c2ccc(C)cc2)c1	Huh7	replicon		<5 µM
C=CC1CC1(NC(=O)[C@@H]1C[C@@H](OC(=O)Nc2ccc(OC)cc2[N+](=O)[O-])CN1C(=O)[C@@H](NC(=O)OC(C)(C)C)C(C)(C)C)C(=O)NS(=O)(=O)C1CC1	Huh7	replicon	1b	1–10 µM
CN(C)CCNC(=O)C1=Cc2nccnc2-c2c(C3CCCCC3)c3ccc(C(=O)NC4(C(=O)Nc5ccc(/C=C/C(=O)O)cc5)CCCC4)cc3n2C1	Huh7	replicon		0.01–1 µM
COc1cccc(CC(=O)N/N=C/c2cc(Cl)cc(OC)c2OS(=O)(=O)c2ccc(C(F)(F)F)cc2)c1	Huh7	replicon		<5 µM
CC(C)N(C(=O)c1ccc(C(F)(F)F)cc1C(F)(F)F)c1cc(-c2ccc(-c3cc4ncccn4n3)cc2)sc1C(=O)O		luciferase / replicon	1a	0.1–0.5 µM
C=CC1CC1(NC(=O)[C@@H]1C[C@@H](OC(=O)Nc2cc(C)cc(C)c2)CN1C(=O)[C@@H](NC(=O)OC(C)(C)C)C(C)(C)C)C(=O)NS(=O)(=O)C1CC1	Huh7	replicon	1b	1–10 µM
COc1ccc(S(=O)(=O)Oc2ccccc2/C=N/NC(=O)Cc2ccccc2)cc1	Huh7	replicon		<5 µM

4 of the rows above, restated:

smiles | cell line | read by | strain | result
CN(Cc1ccc(/C=C\C(=O)O)cc1)S(=O)(=O)NC(=O)c1ccc2c(C3CCCCC3)c3n(c2c1)CC(=O)Nc1ccccc1-3 | Huh7 | replicon |  | 1–10 µM
C=CC1CC1(NC(=O)[C@@H]1C[C@@H](OC(=O)Nc2ccccc2N2CCOCC2)CN1C(=O)[C@@H](NC(=O)OC(C)(C)C)C(C)(C)C)C(=O)NS(=O)(=O)C1CC1 | Huh7 | replicon | 1b | 0.1–1 µM
COc1cccc(CC(=O)N/N=C/c2cc(Cl)cc(OC)c2OS(=O)(=O)c2ccc(C(F)(F)F)cc2)c1 | Huh7 | replicon |  | <5 µM
O=C(Cc1ccccc1)N/N=C/c1ccccc1OS(=O)(=O)c1ccc(Cl)c(Cl)c1 | Huh7 | replicon |  | <5 µM

ECn is the concentration giving n% inhibition of infection, replication or growth. Lines come from different laboratories, so protocols vary. Blank or dashed fields: not listed here.